Measured values published in US7736911B2, “Activity-based probes for protein tyrosine phosphatases” (Albert Einstein College of Medicine of Yeshiva University, priority 2004, dated 2010).

Tests used:
[1] = test system: YopH site-directed mutants (C403S, D356A, D356N, R409A, R409K); assay: Covalent labeling of wild-type and mutant YopH; settings: wild-type YopH pretreated, alkylates Cys403
YopH = YopH (Yersinia enterocolitica, UniProt P15273, C235R/P163M); assay: Kinetic characterization of YopH inactivation by BBP-based probes (pNPP substrate); settings: saturation kinetics, 25° C., pH 6

Row | Substance | effect of pretreatment of YopH on incorporation of I [1] | inactivation rate constant ki (YopH)
1 | iodoacetate | blocked the incorporation of I into YopH | 
2 | α-bromobenzylphosphonate |  | 0.11 min⁻¹
